Compound potency records, mixed from different reports. Data source: NIAID ChemDB in PubChem.

Common to all: growth or infection tests; organism: HIV-1; measure: EC50

ECn: concentration that inhibits the pathogen or its effect by n%. Blank or dashed fields: not listed here. a–b is a range or a potency band. Conditions beyond the fields shown may differ between rows.

SMILES | strain or isolate | mutations | cells | method | result
CCOC(=O)P(=O)(O)OC[C@H]1O[C@@H](n2cc(C)c(=O)[nH]c2=O)C[C@@H]1N=[N+]=[N-] | - | - | CD4/T + CD4 | RT activity | 0.1–1 µM
CCCCCc1ccc2ccccc2n1 | - | - | CEM-4fx | - | 2.9 µM
Cc1cccc(N2CCN(c3cc4c(cc3F)c(=O)c(C(=O)O)cn4-c3ccc(Cn4cncn4)cc3)CC2C)c1 | - | - | PBL | syncytia | 0.1 µM
Cc1nc2ccc(C(=O)NCC[C@@]34CC[C@]5(C)[C@H](CC[C@@H]6[C@@]7(C)CC[C@H](OC(=O)[C@H]8C[C@@H](C(=O)O)C8(C)C)C(C)(C)[C@@H]7CC[C@]65C)C3=C(C(C)C)C(=O)C4)cc2[nH]1 | 92HT599 | - | MT-2 | p24 / ELISA | <1 µM
CC(C)(C)OC(=O)c1cc(NC(=S)OC(C)(C)C)ccc1Cl | - | RT-L100I | CEM | syncytia | >29.08 µM
O=C(O)c1cn(-c2ccc(Cn3cncn3)cc2)c2cc(N3CCN(c4ccc(F)cc4F)CC3)c(F)cc2c1=O | - | - | PBL | syncytia | 0.16 µM
CC(C)C1=C2[C@H]3CC[C@@H]4[C@@]5(C)CC[C@H](OC(=O)[C@H]6C[C@@H](C(=O)O)C6(C)C)C(C)(C)[C@@H]5CC[C@@]4(C)[C@]3(C)CC[C@@]2(CCNC(=O)c2ccc3nc[nH]c3c2)CC1=O | 92HT599 | - | MT-2 | p24 / ELISA | <1 µM
C[C@@H]1CN(C(=N)c2ccccc2)CCN1C(=O)C(=O)c1c[nH]c2c(-n3ccnn3)ncc(F)c12 | Luciferase reporter virus | - | HeLa(CD4+) + HeLa | luciferase | <0.5 µM
O=C1Nc2ccc(Cl)cc2C(C#Cc2ccco2)(C(F)(F)F)O1 | - | - | - | - | <0.0038 µM
CN(C)CCCN=C(c1ccccc1)N1CCN(C(=O)C(=O)c2c[nH]c3c(-n4ccnn4)ncc(F)c23)CC1 | Luciferase reporter virus | - | HeLa(CD4+) + HeLa | luciferase | <0.5 µM
OC(c1ccc2ccccc2n1)C1CC1 | - | - | CEM-4fx | - | 9.8 µM
O=C1Nc2ccc(F)c(F)c2C(C#Cc2ccco2)(C(F)(F)F)O1 | - | - | - | - | <0.00379 µM
CC(C)C1=C2[C@H]3CC[C@@H]4[C@@]5(C)CC[C@H](OC(=O)[C@H]6C[C@@H](C(=O)O)C6(C)C)C(C)(C)[C@@H]5CC[C@@]4(C)[C@]3(C)CC[C@@]2([C@@H](O)CNCc2ccc(N3CCC(O)CC3)cc2)CC1=O | 92HT599 | - | MT-2 | p24 / ELISA | <1 µM
CC1=C(C(=O)Nc2ccc(Cl)c(C(=O)OC(C)C)c2)SCCO1 | IIIB | - | MT-2/MT2(HIV-1) + MT-2 | cytopathic effect / XTT | 0.0026 µg/mL
C=CCOc1cc(NC(=S)OC(C)C)ccc1Cl | - | RT-Y181C | CEM | syncytia | 10.5 µM
CC[C@@H]1CN(C(=NC#N)c2ccccc2)CCN1C(=O)C(=O)c1c[nH]c2c(-n3ccnn3)ncc(F)c12 | Luciferase reporter virus | - | HeLa(CD4+) + HeLa | luciferase | <0.5 µM
Cc1cn([C@H]2C[C@H](N=[N+]=[N-])[C@@H](CO)O2)c(=O)[nH]c1=S | - | - | ATH8 | cytopathic effect | <50 µM
CC(C)C1=C2[C@H]3CC[C@@H]4[C@@]5(C)CC[C@H](OC(=O)[C@H]6C[C@@H](C(=O)O)C6(C)C)C(C)(C)[C@@H]5CC[C@@]4(C)[C@]3(C)CC[C@@]2(CC(=O)NCc2ccc(N3CCC(N4CCOCC4)CC3)cc2)CC1=O | 92HT599 | - | MT-2 | p24 / ELISA | <1 µM
CCCCOCCOc1ccc(-c2ccc3c(c2)/C=C(/C(=O)Nc2ccc([S@@](=O)Cc4nncn4CCC)cc2)CCCN3CC(C)C)cc1 | BAL R5 | - | MOLT-4(CCR5) + PBMC | p24 | <0.0016 µM
CC(C)C1=C2[C@H]3CC[C@@H]4[C@@]5(C)CC[C@H](OC(=O)[C@H]6C[C@@H](C(=O)O)C6(C)C)C(C)(C)[C@@H]5CC[C@@]4(C)[C@]3(C)CC[C@@]2(CC(=O)NC[C@@H]2CCCNC2)CC1=O | 92HT599 | - | MT-2 | p24 / ELISA | <1 µM
C[C@H]1CN(C(=NC#N)c2ccccc2)CCN1C(=O)C(=O)c1c[nH]c2c(Br)ccc(F)c12 | Luciferase reporter virus | - | HeLa(CD4+) + HeLa | luciferase | <0.5 µM
CC(C)C1=C2[C@H]3CC[C@@H]4[C@@]5(C)CC[C@H](OC(=O)[C@H]6C[C@@H](C(=O)O)C6(C)C)C(C)(C)[C@@H]5CC[C@@]4(C)[C@]3(C)CC[C@@]2(CCNC(=O)c2ccc(Cl)cc2OC2CCNCC2)CC1=O | 92HT599 | - | MT-2 | p24 / ELISA | <1 µM
CC(C)OC(=O)c1cc(NC(=S)N(C)C(C)C)ccc1Cl | - | RT-E138K | CEM | syncytia | >30.32 µM
O=C(C(=O)N1CCN(C(=NCCOCCO)c2ccccc2)CC1)c1c[nH]c2cccc(F)c12 | Luciferase reporter virus | - | HeLa(CD4+) + HeLa | luciferase | >0.5 µM
CC(C)=CCOc1cc(NC(=S)c2ccsc2C)ccc1Cl | BaL | - | MAC | p24 | 0.008 µM
CC(C)OC(=O)c1cc(NC(=O)OCC2CC2)ccc1Cl | - | RT-L100I | CEM | syncytia | 12.83 µM
CC(C)C1=C2[C@H]3CC[C@@H]4[C@@]5(C)CC[C@H](OC(=O)[C@H]6C[C@@H](C(=O)O)C6(C)C)C(C)(C)[C@@H]5CC[C@@]4(C)[C@]3(C)CC[C@@]2([C@@H](O)CNC(=O)c2ccc(CN3CCC(O)CC3)cc2)CC1=O | 92HT599 | - | MT-2 | p24 / ELISA | <1 µM
O=C1Nc2ccc(Cl)cc2C(C#Cc2ccoc2)(C(F)(F)F)O1 | - | RT-K103N | - | - | <0.1522 µM
COC(=O)/C=C/c1ccc2ccccc2n1 | - | - | CEM-4fx | - | >100 µM
O=C1c2ccccc2C(=O)c2c1cc(S(=O)(=O)O)c(O)c2O | IIIB | - | SupT1 + Sup-T1 | cytopathic effect | >50 µg/mL
C=C(C=O)[C@@H]1CC[C@@]2(C)C1C1CCC3[C@@]4(C)CC[C@H](O)C(C)(C)C4CC[C@@]3(C)[C@]1(C)C[C@@H]2O | - | - | CEM.NKR-CCR5 | luciferase / entry | 1 µM
Nc1ncnc2c1ncn2COCCOP(=O)([O-])O[C@@H]1[C@H](O)[C@@H](COP(=O)([O-])O[C@@H]2[C@H](O)[C@@H](COP(=O)([O-])O[C@@H]3[C@H](O)[C@@H](CO)O[C@H]3n3cnc4c(N)ncnc43)O[C@H]2n2cnc3c(N)ncnc32)O[C@H]1n1cnc2c(N)ncnc21 | - | - | SupT1 + Sup-T1 | RT activity | <300 µM
CCCCC(=O)Oc1ccc(COP(=O)(Oc2ccc(OC(=O)CCC(=O)OCCOCCOCCOC)cc2)OP(=O)(O)OP(=O)(O)OC[C@@H]2C=C[C@H](n3cc(C)c(=O)[nH]c3=O)O2)cc1 | IIIB | - | CEM/TK- | syncytia / visual reading | 16 µM
Cc1cn(-c2ccc(CNC[C@H](O)[C@@]34CC[C@]5(C)[C@H](CC[C@@H]6[C@@]7(C)CC[C@H](OC(=O)[C@H]8C[C@@H](C(=O)O)C8(C)C)C(C)(C)[C@@H]7CC[C@]65C)C3=C(C(C)C)C(=O)C4)cc2)cn1 | 92HT599 | - | MT-2 | p24 / ELISA | <1 µM
CCC/C=C/c1ccc2ccccc2n1 | - | - | CEM-4fx | - | 7.9 µM
CCN=C(c1ccccc1)N1CCN(C(=O)C(=O)c2c[nH]c3c(-n4ccnn4)ncc(F)c23)CC1 | Luciferase reporter virus | - | HeLa(CD4+) + HeLa | luciferase | <0.5 µM
C=CC(C)(/C=C\c1ccc(O)cc1)c1ccc(O)cc1.NC(=O)NO | 6366 | - | Macrophage | p24 | <0.00054 µM
CCCCCCCCCCCCCCCC(=O)Oc1ccc(OP(=O)(OCc2ccc(OC(=O)CCCC)cc2)OP(=O)(O)OP(=O)(O)OC[C@@H]2C=C[C@H](n3cc(C)c(=O)[nH]c3=O)O2)cc1 | IIIB | - | CEM/TK- | syncytia / visual reading | 1.1 µM
COc1cnc(-c2cnccn2)c2[nH]cc(C(=O)C(=O)N3CCN(C(=N)c4ccccc4)C[C@H]3C)c12 | Luciferase reporter virus | - | HeLa(CD4+) + HeLa | luciferase | <0.5 µM
CC(O)Cc1ccc2cccc(O)c2n1 | - | - | CEM-4fx | - | 2.7 µM
CC(C)C1=C2[C@H]3CC[C@@H]4[C@@]5(C)CC[C@H](OC(=O)[C@H]6C[C@@H](C(=O)O)C6(C)C)C(C)(C)[C@@H]5CC[C@@]4(C)[C@]3(C)CC[C@@]2([C@@H](O)CN(CCN(C)C)C(=O)c2ccc(Cl)cc2)CC1=O | 92HT599 | - | MT-2 | p24 / ELISA | <1 µM
O=C(O)c1cn(-c2ccc(Cn3cncn3)cc2)c2c(Cl)c(N3CCN(c4ccccn4)CC3)c(F)cc2c1=O | - | - | PBL | syncytia | 0.2 µM
Nc1ncnc2c1ncn2COCCOP(=O)(O)O[C@@H]1C[C@@H](COP(=O)(O)O[C@@H]2C[C@@H](COP(=O)(O)O[C@@H]3C[C@@H](CO)O[C@H]3n3cnc4c(NCc5ccccc5)ncnc43)O[C@H]2n2cnc3c(N)ncnc32)O[C@H]1n1cnc2c(N)ncnc21 | - | - | SupT1 + Sup-T1 | p24 | 100 µM
C[C@H]1CN(C(=NC#N)c2ccccc2)CCN1C(=O)C(=O)c1c[nH]c2c(-c3nccs3)ccc(F)c12 | Luciferase reporter virus | - | HeLa(CD4+) + HeLa | luciferase | <0.5 µM
CCCCCCCCCCCCCCCCCC(=O)Oc1ccc(OP(=O)(OCc2ccc(OC(=O)CCCC)cc2)OP(=O)(O)OP(=O)(O)OC[C@@H]2C=C[C@H](n3cc(C)c(=O)[nH]c3=O)O2)cc1 | IIIB | - | CEM/TK- | syncytia / visual reading | 0.54 µM

For reference, 7 entries again:

SMILES	strain or isolate	mutations	cells	method	result
COc1cnc(-c2cnccn2)c2[nH]cc(C(=O)C(=O)N3CCN(C(=N)c4ccccc4)C[C@H]3C)c12	Luciferase reporter virus	-	HeLa(CD4+) + HeLa	luciferase	<0.5 µM
Cc1cccc(N2CCN(c3cc4c(cc3F)c(=O)c(C(=O)O)cn4-c3ccc(Cn4cncn4)cc3)CC2C)c1	-	-	PBL	syncytia	0.1 µM
CCC/C=C/c1ccc2ccccc2n1	-	-	CEM-4fx	-	7.9 µM
O=C(C(=O)N1CCN(C(=NCCOCCO)c2ccccc2)CC1)c1c[nH]c2cccc(F)c12	Luciferase reporter virus	-	HeLa(CD4+) + HeLa	luciferase	>0.5 µM
O=C1Nc2ccc(Cl)cc2C(C#Cc2ccco2)(C(F)(F)F)O1	-	-	-	-	<0.0038 µM
Cc1cn([C@H]2C[C@H](N=[N+]=[N-])[C@@H](CO)O2)c(=O)[nH]c1=S	-	-	ATH8	cytopathic effect	<50 µM
Nc1ncnc2c1ncn2COCCOP(=O)(O)O[C@@H]1C[C@@H](COP(=O)(O)O[C@@H]2C[C@@H](COP(=O)(O)O[C@@H]3C[C@@H](CO)O[C@H]3n3cnc4c(NCc5ccccc5)ncnc43)O[C@H]2n2cnc3c(N)ncnc32)O[C@H]1n1cnc2c(N)ncnc21	-	-	SupT1 + Sup-T1	p24	100 µM